Source: patent US8175860B2, “Method of inhibiting the growth of Helicobacter pylori” (priority 2009, dated 2012)
pIC50: −log10 of the molar value.

By UniProt entry, the sequences of proteins in these tests, tags left out.
UniProt P9WPY3, whole entry: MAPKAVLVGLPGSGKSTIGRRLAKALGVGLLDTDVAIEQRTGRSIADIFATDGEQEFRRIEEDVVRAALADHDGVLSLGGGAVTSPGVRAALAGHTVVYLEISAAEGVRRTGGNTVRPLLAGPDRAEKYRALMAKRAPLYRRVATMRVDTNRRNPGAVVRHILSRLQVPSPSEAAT

Target: MtSK (M. tuberculosis shikimate kinase) (Mycobacterium tuberculosis, UniProt P9WPY3)
Assay: Shikimate kinase inhibitor activity assay (pyruvate kinase/lactate dehydrogenase coupled), MtSK
Type: biochemical

**Q.** How did the pIC50 turn out when `O=C(NNC(=O)C1c2ccccc2Oc2ccccc21)c1cccc([N+](=O)[O-])c1` was run?
**A.** < 4.30
